A mixed list of measured activities; the numbers were collected in NIAID ChemDB.

Common to all: tests in culture; organism: Candida albicans; read-out: MIC

Conditions beyond the fields shown may differ between rows. Blank or dashed fields: not listed here.

compound | strain | result
c1ccc(CO/N=C(/Cn2ccnc2)c2ccccc2)cc1 | Y0109 | 64 µg/mL
COc1cc(C2C=C(c3ccc4c(c3)OCO4)NC(SCC(=O)Nc3ccc(Cl)cc3)N2)cc(OC)c1OC | DSM 70014 | 50 µg/mL
CO[C@H]1[C@@H](OC(=O)OCc2ccccc2)[C@H](O)[C@H](OCC23C4C=C(C(C)C)C2(C(=O)O)C(C=O)(C4)[C@@H]2CC[C@@H](C)[C@H]23)O[C@@H]1C | 2402 | 8 µg/mL
CC[N+]([O-])(CC)CCCC(C)CCCC(C)CCCCC(C)CCCC(C)CCC[N+]([O-])(CC)CC | S9 | >200 µg/mL
Cc1c(O)cccc1C(=O)N[C@@H](CSc1ccccc1)[C@H](O)CN1C[C@H]2CCCC[C@H]2C[C@H]1C(=O)NC(C)(C)C | I18A | >64 µg/mL
CCSc1nnc(Cc2cc([N+](=O)[O-])ccc2-c2ncc[nH]2)s1 | ATCC 10231 | >100 µg/mL
CC(C)=CCC/C(C)=C/CCC(C)=CCC/C=C(\C)CCC=C(C)CCC[N+](C)(C)C | S9 | 6.25 µg/mL
Clc1ccc(/C(Cn2ccnc2)=N\OCc2ccccc2)cc1 | CA6 | >16 µg/mL
CC[C@@H](C)[C@H](OC(=O)/C=C/c1ccccc1)[C@H](C)[C@H](O)C/C=C/C=C/C(N)=O |  | 0.5 µg/mL
CC(C)=CCC/C(C)=C/CCC(C)=CCC/C=C(\C)CCC=C(C)CCCN(C)C | S9 | 25 µg/mL
CCn1cc(-c2ccc(Cl)cc2Cl)c(C(c2ccc(Cl)cc2Cl)n2ccnc2)c1 |  | 0.23 µg/mL
O=C(Nc1ccc(F)cc1)c1ncccc1O | ATCC 44859 | 62.5 µM
CS(=O)(=O)c1nnc(Cc2cc([N+](=O)[O-])ccc2-c2ncc[nH]2)s1 | ATCC 10231 | 1.56 µg/mL
COc1ccc(C2=CC(c3cc(OC)c(OC)c(OC)c3)NC(=S)N2)cc1OC | DSM 70014 | 50 µg/mL
CC(C)CCCC(C)CCCC(C)CCCCC(C)CCCC(C)CCC[N+](C)(C)[O-] | S9 | >200 µg/mL
Cn1cc(-c2ccccc2)c(C(c2cccc3ccccc23)n2ccnc2)c1 |  | 6 µg/mL
COc1ccc(-c2cc(-c3cc(OC)c(OC)c(OC)c3)nc(NN)n2)cc1OC | DSM 70014 | 50 µg/mL
O=C(Nc1ccc(Cl)c(Cl)c1)c1ccccc1O | ATCC 44859 | >125 µM
COc1ccc(C2=NN(C(C)=O)C(c3cc(OC)c(OC)c(OC)c3)C2)cc1OC | DSM 70014 | 12.5 µg/mL
CSc1nnc(-c2cccc([N+](=O)[O-])c2)s1 | ATCC 10231 | >100 µg/mL
COc1cc(O)c2c(c1)C(=O)c1c(cc3c(c1O)-c1c(cc(C)c(C(=O)NCC(=O)O)c1O)[C@H](OC1OC(C)C(N(C)C)C(OC4OCC(O)C(O)C4O)C1O)[C@H]3O)C2=O | IAM4888 | 6.3 µg/mL
Fc1ccc(/C(Cn2ccnc2)=N/OCc2ccccc2)cc1 | 3M | 64 µg/mL
Cn1cc(-c2ccc(Cl)cc2)c(C(c2ccc(Cl)cc2Cl)n2ccnc2)c1 |  | 0.28 µg/mL
O=C(Nc1ccccc1)c1ccccc1O | ATCC 44859 | 250 µM
CC(C)CCCC(C)CCCC(C)CCCCC(C)CCCC(C)CCCN(C)C | S124 | >200 µg/mL
C[C@H]1[C@H](O)[C@@H](C)/C=C/C=C/C=C/C=C/C=C/C=C/C=C/[C@H](O[C@@H]2O[C@H](C)[C@@H](O)[C@H](N)[C@@H]2O)C[C@@H]2O[C@](O)(C[C@@H](O)C[C@@H](O)CC[C@H](O)[C@@H](O)C[C@@H](O)CC(=O)O[C@H]1C)C[C@H](O)[C@H]2C(=O)O | ATCC64546 | 0.25 µg/mL
Cn1cc(-c2ccc(Cl)cc2)c(C(c2ccccc2)n2ccnc2)c1 |  | 0.025 µg/mL
CC[N+](C)(CC)CCCC(C)CCCC(C)CCCCC(C)CCCC(C)CCC[N+](C)(CC)CC | S124 | 3.12 µg/mL
Cc1ccc(NC(=O)c2ccccc2O)cc1 | ATCC 44859 | >250 µM
Clc1ccc(-c2c[nH]cc2C(c2ccccc2)n2ccnc2)cc1 |  | 0.66 µg/mL
Clc1ccc(/C(Cn2ccnc2)=N/OCc2ccccc2)cc1 | CA2 | 16 µg/mL
Clc1ccc(-c2cn(-c3ccccc3)cc2C(c2ccccc2)n2ccnc2)cc1 |  | 1.5 µg/mL
COc1ccc(NC(=O)CSC2NC(c3ccc4c(c3)OCO4)=CC(c3cc(OC)c(OC)c(OC)c3)N2)cc1 | DSM 70014 | 100 µg/mL
COc1ccc(C(Cc2cccc(F)c2)n2ccnc2)cc1 |  | 51 µg/mL
CCCS(=O)c1nnc(Cc2cc([N+](=O)[O-])ccc2-c2ncc[nH]2)s1 | ATCC 10231 | 25 µg/mL
COc1ccc(C(Cc2ccccc2Cl)n2ccnc2)cc1 |  | 63 µg/mL
Nc1[nH]c(=O)ncc1F | 315 | 0.03 µg/mL
Clc1ccc(/C(Cn2ccnc2)=N/OCc2ccccc2)c(Cl)c1 | CDCB385 | 4 µg/mL
COc1ccc(C(Cc2ccccc2-n2cccc2)n2ccnc2)cc1 |  | 7.8 µg/mL

Repeating the final 3 entries:

compound	strain	result
Nc1[nH]c(=O)ncc1F	315	0.03 µg/mL
Clc1ccc(/C(Cn2ccnc2)=N/OCc2ccccc2)c(Cl)c1	CDCB385	4 µg/mL
COc1ccc(C(Cc2ccccc2-n2cccc2)n2ccnc2)cc1		7.8 µg/mL